Here are results for one substance from US20190328860.

This experiment addresses cholera toxin B subunit (CTB), Vibrio cholerae.

On to “IsdB-CTA2 peptide of the IsdB-CTA2/B chimera”, for which the result is on record as “binds”.
